In one test the test system is MT-2. As to the kind of experiment: MT-2 activity. The test is classed as cell-based. Conditions: read-out: MT-2 (activity).
In the next test the target is gp120-CD4 interaction (Human immunodeficiency virus type 1 group M subtype B, UniProt P03375). Conditions: read-out: CD4 (activity).

On to `COc1ccc(-c2ccc(CNC(=O)COCCOCCOCCOCCOCCOCCn3cc(COCCOCCOCCOCCNc4ccc([N+](=O)[O-])cc4[N+](=O)[O-])nn3)o2)c2[nH]cc(C(=O)C(=O)N3CCN(C(=O)c4ccccc4)CC3)c12` [C5-furan], for which the IC50 in the test with MT-2 is 10 nM; on gp120-CD4 interaction it was 290 nM.

The values above are taken from patent US10703743B2 (priority 2010, dated 2020).
